Target: SARS-CoV-2 BA.1/Omicron RBD-His (UniProt P0DTC2)
Test: BLI
Settings: Fc fusion

Q: How did the Kd turn out when VHH72-S56A_Fc was run?
A: The Kd was 180 nM.
